Reference: patent US20110076298A1, “Soluble stabilized trimeric hiv env proteins and uses thereof” (priority 2006, published 2011)

Assay: Extent of SOSIP gp140 cleavage by reduced SDS-PAGE

For “KNH1144 SOSIP gp140: soluble, disulfide-stabilized, I571P-modified cleaved trimeric gp140 of HIV-1 subtype A KNH1144”, the “extent of SOSIP gp140 cleavage with Furin co-expressed” value (Furin co-expression) was 87%, the “extent of SOSIP gp140 cleavage with Hex-Arg (R6) motif” value (R6 substitution, no Furin) was 77% and the “extent of SOSIP gp140 cleavage” value (no Furin, no R6 motif, gp120 as % of total Env) was 46%.
